Data on three molecules can be found in publication PMC5086656, “Crystal Structure of Ribosome-Inactivating Protein Ricin A Chain in Complex with the C-Terminal Peptide of the Ribosomal Stalk Protein P2” (2016).

SMILES strings stand for the structures. The match of structure and compound is tentative.

Experiment [1] has as its target T1, RTA (Ricinus communis, UniProt P02879). Put plainly: Isothermal titration calorimetry (ITC) of P2 variant peptides with RTA. The note with it: for Kd: read-out: binding affinity, KD, 20 x 2 µL of 600 µM P2 variant peptide into 200 µL cell with 35 µM RTA; for Kd / N: ITC-200, 25 °C, 20 mM Tris-Cl, 100 mM NaCl, pH 7.0, one-site binding model; for N: 600 µM P2 variant peptide into 35 µM RTA.

The subject of another experiment is Shiga toxin (Stx) 1. The note with it: ref [15],[16]; cited from earlier work.
The test system of experiment [2] is active form of maize RIP (MOD). Particulars: ref [14]; cited from earlier work.
For the next experiment, the system named is trichosanthin (TCS). Particulars: ref [12],[13]; cited from earlier work.
Experiment [3] concerns the target T1, RTA. Put plainly: Co-crystal structure of RTA with P2 peptide. Particulars: 1.6 Å, only last 6 residues (GFGLFD) fitted.

With `CC(C)C[C@H](NC(=O)CNC(=O)[C@H](Cc1ccccc1)NC(=O)CN)C(=O)N[C@@H](Cc1ccccc1)C(=O)N[C@@H](CC(=O)O)C(=O)O`, the “change of RTA binding affinity (KD) of C6 compared with C11” value at RTA [1] (ITC, C6 compared to C11) is recorded as “decreasing eight-fold”. Further, the dissociation constant Kd at RTA [1] amounted to 18.8 µM.
For the molecule `CSCC[C@H](NC(=O)[C@H](CC(=O)O)NC(=O)[C@H](CC(=O)O)NC(=O)[C@H](CC(=O)O)NC(=O)[C@@H](N)CO)C(=O)NCC(=O)N[C@@H](Cc1ccccc1)C(=O)NCC(=O)N[C@@H](CC(C)C)C(=O)N[C@@H](Cc1ccccc1)C(=O)N[C@@H](CC(=O)O)C(=O)O`, on RTA [1], the N is 1.0±0.4. In addition, the “interaction with Shiga toxin (Stx) 1” value in the experiment on Shiga toxin (Stx) 1 is “interacts with several RIPs”. Further, the “interaction with active form of maize RIP (MOD)” value in experiment [2] is reported as “interacts with several RIPs”. Also, in the experiment on trichosanthin (TCS), the “interaction with trichosanthin (TCS)” value was “interacts with several RIPs”.
With `CSCC[C@H](NC(=O)[C@H](CC(=O)O)NC(=O)[C@@H](N)CC(=O)O)C(=O)NCC(=O)N[C@@H](Cc1ccccc1)C(=O)NCC(=O)N[C@@H](CC(C)C)C(=O)N[C@@H](Cc1ccccc1)C(=O)N[C@@H](CC(=O)O)C(=O)O`, on RTA [1], the N is listed as 1.1±0.1 and the Kd is 3.4 µM. For the same molecule, at RTA [3], the “stoichiometry of complex with RTA in crystal” value is recorded as 1:1 complex.
